Reference: PubChem BioAssay AID504761 (Drosophila RNAi Screening Center, 2011)

Screen: 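Insect host genes that dengue virus relies on to spread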 (primary screen)
System: D.Mel-2 cells from Drosophila
Reagent: long dsRNA against Drosophila genes
Conditions: infection with dengue virus type 2; dose and infection time not stated
Measurement: 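Cells stained for dengue envelope protein and imaged; percent of infected cells per well on duplicate plates, ranked by infection, with stained nuclei counted for cell number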
Scale: infection score: higher = more virus-infected cells; cell count: higher = more cells in the well
Call rule: 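Very low infection ranking in both replicate wells (chance probability at most 0.065), then a retest showing infection dropped 1.5-fold or more at p below 0.05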
Meaning of the calls: active = confirmed: knock-down lowers infection; inactive = not picked or not confirmed
The deposit covers about 22,000 reagents; shown is an unselected part of those that have a named target and a result. In the full data, 116 (0.52%) were called active. 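Calls depend on retest data that are not deposited; infection was ranked per plate without normalising between plates; the unit of the infection score is not given.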 The raw values are shown without normalisation. Entries without a mark were called inactive. Reagents against one gene are numbered here. A plus sign joins genes that one reagent is predicted to hit. Reagent sequences are not shown. Not given: the amount of reagent, the time to read-out.

Depletion of Cyp6a20 (Cytochrome P450 6a20) came out at: infection score, replicate 1 = 12.1; infection score, replicate 2 = 5.8; cell count, replicate 1 = 6468; cell count, replicate 2 = 6618.
Depletion of pn (prune) #1 resulted in: infection score, replicate 1 = 3.46; infection score, replicate 2 = 3.82; cell count, replicate 1 = 5888; cell count, replicate 2 = 6545.
For pn (prune) #2, the entry reads infection score, replicate 1 = 11.6; infection score, replicate 2 = 7.79; cell count, replicate 1 = 3070; cell count, replicate 2 = 2412.
Silencing of CG14321 #1 came out at: infection score, replicate 1 = 3.53; infection score, replicate 2 = 7.04; cell count, replicate 1 = 6742; cell count, replicate 2 = 5811.
Knock-down of CG14321 #2 gave: infection score, replicate 1 = 2.94; infection score, replicate 2 = 8.77; cell count, replicate 1 = 6159; cell count, replicate 2 = 6314.
Silencing of IP3K1 + hpRNA:CR18854 came out at: infection score, replicate 1 = 0.73; infection score, replicate 2 = 11.1; cell count, replicate 1 = 6583; cell count, replicate 2 = 6627.
With knock-down of Bem46 the results were infection score, replicate 1 = 9.72; infection score, replicate 2 = 10.6; cell count, replicate 1 = 6348; cell count, replicate 2 = 6535.

Copied from the listing for reference:
CG14321 #2 | infection score, replicate 1: 2.94; infection score, replicate 2: 8.77; cell count, replicate 1: 6159; cell count, replicate 2: 6314
IP3K1 + hpRNA:CR18854 | infection score, replicate 1: 0.73; infection score, replicate 2: 11.1; cell count, replicate 1: 6583; cell count, replicate 2: 6627

More records follow:
With knock-down of Tsp29Fb (Tetraspanin 29Fb) #1 the results were infection score, replicate 1 = 2.56; infection score, replicate 2 = 7.88; cell count, replicate 1 = 6371; cell count, replicate 2 = 6267.
Tsp29Fb (Tetraspanin 29Fb) #2 scored infection score, replicate 1 = 5.6; infection score, replicate 2 = 2.87; cell count, replicate 1 = 6659; cell count, replicate 2 = 5920.
CG13807 #1 showed infection score, replicate 1 = 1.94; infection score, replicate 2 = 4.37; cell count, replicate 1 = 6903; cell count, replicate 2 = 6456.
CG13807 #2 scored infection score, replicate 1 = 11.1; infection score, replicate 2 = 6.71; cell count, replicate 1 = 3402; cell count, replicate 2 = 1162.
Depletion of CG14327 resulted in: infection score, replicate 1 = 8.87; infection score, replicate 2 = 1.86; cell count, replicate 1 = 5694; cell count, replicate 2 = 6307.
For lncRNA:CR41601 (long non-coding RNA:CR41601) the deposit lists infection score, replicate 1 = 8.95; infection score, replicate 2 = 3.56; cell count, replicate 1 = 5964; cell count, replicate 2 = 6383.
With knock-down of mei-9 (meiotic 9) the results were infection score, replicate 1 = 10.7; infection score, replicate 2 = 5.48; cell count, replicate 1 = 5934; cell count, replicate 2 = 6295.
CNT1 + CG13742 #1 showed infection score, replicate 1 = 8.39; infection score, replicate 2 = 8.59; cell count, replicate 1 = 3717; cell count, replicate 2 = 5949.
CNT1 + CG13742 #2 scored infection score, replicate 1 = 10; cell count, replicate 1 = 3718; cell count, replicate 2 = 360.
Silencing of CG7255 came out at: infection score, replicate 1 = 12.8; infection score, replicate 2 = 10.1; cell count, replicate 1 = 5954; cell count, replicate 2 = 4268.
Knock-down of Vha16-3 (Vacuolar H[+] ATPase 16kD subunit 3) #1 came out at: infection score, replicate 1 = 1.84; infection score, replicate 2 = 2.68; cell count, replicate 1 = 6291; cell count, replicate 2 = 6429.
With knock-down of Vha16-3 (Vacuolar H[+] ATPase 16kD subunit 3) #2, the screen gave infection score, replicate 1 = 5.17; infection score, replicate 2 = 0.38; cell count, replicate 1 = 5162; cell count, replicate 2 = 6240.
Against fws (four way stop) #1, the values are infection score, replicate 1 = 14.8; infection score, replicate 2 = 12.5; cell count, replicate 1 = 6349; cell count, replicate 2 = 6274.
For fws (four way stop) #2, the values are cell count, replicate 1 = 366; cell count, replicate 2 = 383.
